Results: US20230174473A1, “ANTIMICROBIAL AND ANTIVIRAL SULFUR CONTAINING GLYCEROL MONOESTER DERIVATIVES” (priority 2020, published 2023)
Values joined by “and” are separate entries in the source; they are usually repeats but may differ in a detail not shown here. Equal values may be shown once.

Test system: Lipase (glycerol ester hydrolase)
Assay: Lipase (glycerol ester hydrolase) assay, esterase resistance
Type: biochemical, Staphylococcus aureus
Details: for diameters (hydrolysis zone) / diameters squared: 500 ug/ml compound in agarose slide, 24 hours at 37° C.; for diameters (hydrolysis zone): 20 ul lipase 25 ug/ml per well, two lipase samples; for diameters squared: lipase 25 ug/ml
Method: Protocol for Lipase (glycerol ester hydrolase) assay: • 1. Two separate samples of lipase at 25 ug/ml were prepared. • 2. Microscope slides were made up with 500 ug/ml of GML, SGML, or S2ML compounds. • These slides contained 0.85% agarose (Difco) heat solubilized into PBS (0.005 M NaPO4 pH 7.2; 0.15MNaC1). • 3. The mixtures contained the compounds above their solubility limits, so they were vortexed, and 4.5 ml of the cloudy mixtures was spread onto microscope slides. • 4. The slides remained at room temperature for 1 hour to allow the agarose to solidify. • 5. The, 4 mm wells were punched into the agarose, twice per slide. • 6. 20 ul of the Lipase was added to each well. • 7. The slides were incubated for 24 hours at 37° C. • 8. The diameter squared was determined for each. This allows determination of hydrolysis of compound. • GML: 15 mm; 15 mm diameters (diameters squared=225 mm) • SGML: 12 mm; 13 mm diameters (diameters squared=144 mm and 169 mm for an average of 156.5 mm) • S2GML: 0 mm; 0 mm diameters (diameters squared=0) • 10. Diameter squared is used to the determination would be a straight line with a standard curve. • Set GML at 100% • 11. SGML is 70% as much as GML • 12. S2GML is 0% of GML

| SMILES | diameters (hydrolysis zone) | diameters squared | diameters squared, average (average of two lipase samples) [mm] |
| --- | --- | --- | --- |
| CCCCCCCCCCCC(=S)SCC(O)CO (centres unmarked) [Example S2GML, glycerol dithionomonolaureate] | 0 mm | 0 mm |  |
| CCCCCCCCCCCC(=S)OCC(O)CO (centres unmarked) [SGML, glycerol thionomonolaureate] | 12 mm and 13 mm | 144 mm and 169 mm | 156.5 |
